Measured values from publication PMC8497620, “Structure and inhibition of Cryptococcus neoformans sterylglucosidase to develop antifungal agents” (Nature Communications, 2021).

Protein sequences, listed by entry. Tags and fused reporters are not part of them. Residues count along the entry.
UniProt J9W473, 1-851: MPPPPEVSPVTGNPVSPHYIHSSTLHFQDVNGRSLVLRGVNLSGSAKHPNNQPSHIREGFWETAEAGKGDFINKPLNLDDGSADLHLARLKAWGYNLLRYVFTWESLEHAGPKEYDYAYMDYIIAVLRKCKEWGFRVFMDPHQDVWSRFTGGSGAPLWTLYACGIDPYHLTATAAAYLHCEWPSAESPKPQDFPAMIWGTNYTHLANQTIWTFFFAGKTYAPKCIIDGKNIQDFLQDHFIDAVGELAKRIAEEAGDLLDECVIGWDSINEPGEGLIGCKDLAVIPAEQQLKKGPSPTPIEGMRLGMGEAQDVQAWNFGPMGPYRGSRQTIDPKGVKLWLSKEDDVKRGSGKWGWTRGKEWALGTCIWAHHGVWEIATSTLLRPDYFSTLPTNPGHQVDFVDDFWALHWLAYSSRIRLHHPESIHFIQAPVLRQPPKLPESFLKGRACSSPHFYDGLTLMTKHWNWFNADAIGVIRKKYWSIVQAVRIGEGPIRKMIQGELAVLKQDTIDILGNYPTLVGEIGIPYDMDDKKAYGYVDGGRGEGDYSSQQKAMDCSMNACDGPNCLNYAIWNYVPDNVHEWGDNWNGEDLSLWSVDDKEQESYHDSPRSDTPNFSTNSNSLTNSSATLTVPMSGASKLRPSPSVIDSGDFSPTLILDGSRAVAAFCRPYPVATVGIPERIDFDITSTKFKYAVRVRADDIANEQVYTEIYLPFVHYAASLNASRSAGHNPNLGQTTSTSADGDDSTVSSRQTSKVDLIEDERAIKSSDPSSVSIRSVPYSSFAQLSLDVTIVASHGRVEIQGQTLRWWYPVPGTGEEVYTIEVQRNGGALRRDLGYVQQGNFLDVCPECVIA

Legend:
[1] = system: human lung epithelial cancer cell line A549; conditions: A549 cells, 24 h, MTT
C. neoformans Sgl1 = C. neoformans Sgl1 (Cryptococcus neoformans var. grubii, UniProt J9W473); assay: Sgl1 inhibition with res-glp substrate (HTS, single-compound dose-response); assay type: biochemical; conditions: read-out: IC50 against Sgl1; res-glp as substrate (100 µM), primary screen

| SMILES | LD50 (lethal dose 50) [1] [µM] | IC50 (C. neoformans Sgl1) [µM] |
| --- | --- | --- |
| CCc1[nH]c2ccc(CNc3cc(C)nc(NC)n3)cc2c1C | 50 | 1 |
| CCc1[nH]c2ccc(CNc3nc(C)cc(NC)n3)cc2c1C | 87 | 2 |
